Anti-infective test results gathered from many reports (values: NIAID ChemDB through PubChem).

Shared fields: tests in culture; organism: Rhinovirus; read-out: EC50

ECn is the concentration giving n% inhibition of infection, replication or growth.

SMILES | cell line | method | strain or isolate | value
Fc1cccc(Cn2cnc3c(Nc4cccc(F)c4)nc(C(F)(F)F)nc32)c1 | M-HELA | plaque count | Serotype 3 | 5.6 µM
CN(C)c1nc(C(F)(F)F)nc2c1ncn2Cc1cccc(F)c1 | M-HELA | plaque count | Serotype 13 | >8 µM
CSc1nsc(-c2ccc(OCc3ccccc3)cc2)c1C#N | HELA-OHIO | cytopathic effect | Serotype 85 (group B) | 1 µM
Cc1ccc(Cn2cnc3c(N(C)C)nc(C(F)(F)F)nc32)c(C)c1 | M-HELA | plaque count | Serotype 21 | >8 µM
CCOC(=O)c1ccc(OCCCCOc2ccc(-c3snc(SC)c3C#N)cc2)cc1 | HELA-OHIO | cytopathic effect | Serotype 51 (group B) | >2 µM
CN(C)c1ccc(Cn2cnc3c(N(C)C)nc(C(F)(F)F)nc32)cc1 | M-HELA | plaque count | Serotype 15 | >8 µM
Cc1cc(CCCCCOc2c(Cl)cc(C3=NCCO3)cc2Cl)on1 | HeLa | plaque count | ATCC39 | 0.2 µg/mL
CCOC(=O)c1ccc(OCCCOc2ccc(-c3snc(SC)c3C#N)cc2)cc1 | HELA-OHIO | cytopathic effect | Serotype 86 (group A) | 0.4 µM
CC(=O)Nc1ccc(Cn2cnc3c(Nc4cccc(F)c4)nc(C(F)(F)F)nc32)cc1 | M-HELA | plaque count | Serotype 2 | 300 µM
CSc1nsc(-c2ccc(O)cc2)c1C#N | HELA-OHIO | cytopathic effect | Serotype 14 (group A) | >10 µM
CSc1nsc(-c2ccc(OCCOc3ccc([N+](=O)[O-])cc3)cc2)c1C#N | HELA-OHIO | cytopathic effect | Serotype 51 (group B) | >2 µM
Cc1cc(Cn2cnc3c(N(C)C)nc(C(F)(F)F)nc32)ccc1Cl | M-HELA | plaque count | Serotype 5 | >8 µM
CSc1nsc(-c2ccccc2)c1C#N | HELA-OHIO | cytopathic effect | Serotype 85 (group B) | >80 µM
CCO/N=C/c1ccc(OCCC2CCN(c3ccc(Cl)nn3)CC2)cc1 | KB | neutral red | 353 (ICAM-1 receptor group 13) | 0.026 µM
CN(C)c1nc(C(F)(F)F)nc2c1ncn2Cc1ccc([N+](=O)[O-])cc1 | M-HELA | plaque count | Serotype 15 | >8 µM
CCOC(=O)c1ccc(OCCC2CCN(c3ccc(C)nn3)CC2)cc1 | HELA-OHIO | cytopathic effect | Serotype 86 (group A) | 0.087 µM
CSc1nsc(-c2ccc(OS(=O)(=O)c3ccc(C)cc3)cc2)c1C#N | HELA-OHIO | cytopathic effect | Serotype 86 (group A) | >25 µM
CSc1nsc(-c2ccc(OCCCOc3ccc([N+](=O)[O-])cc3)cc2)c1C#N | HELA-OHIO | cytopathic effect | Serotype 14 (group A) | >1 µM
CCOC(=O)/C=C/[C@H](C[C@@H]1CCNC1=O)NC(=O)[C@@H](CC(=O)[C@@H](NC(=O)c1cc(C)on1)C(C)C)Cc1ccc(F)cc1 | OHIO HELA-I | cytopathic effect / visual reading | Isolate 39 | 0.01 µg/mL
CN(C)c1nc(C(F)(F)F)nc2c1ncn2Cc1ccc(Cl)cc1Cl | M-HELA | plaque count | Serotype 4 | >8 µM

2 of the rows above, restated:

SMILES	cell line	method	strain or isolate	value
CCOC(=O)/C=C/[C@H](C[C@@H]1CCNC1=O)NC(=O)[C@@H](CC(=O)[C@@H](NC(=O)c1cc(C)on1)C(C)C)Cc1ccc(F)cc1	OHIO HELA-I	cytopathic effect / visual reading	Isolate 39	0.01 µg/mL
CN(C)c1nc(C(F)(F)F)nc2c1ncn2Cc1ccc([N+](=O)[O-])cc1	M-HELA	plaque count	Serotype 15	>8 µM

Conditions beyond the fields shown may differ between rows.